Compound potency records, mixed from different reports. Data source: NIAID ChemDB in PubChem.

Common to all: tests in culture; agent: Candida tropicalis

A number after MIC or MFC names an inhibition level or a share of isolates.

structure | strain or isolate | read by | conditions | read-out | dose | value
CC(C)(O)c1cn(-c2cccc3ccccc23)nn1 | URM 916 |  |  | inhibition | 2048 µg/mL | 0%
CC1(C)O[C@H]2[C@H](O)[C@@H](N=[N+]=[N-])C=C(c3ccc(C=O)cc3)[C@H]2O1 | C 131 | broth dilution / turbidity |  | inhibition | 31.25 µg/mL | 2.91%
C=CCc1ccc(O)c(OC)c1 | ATCC 750 | turbidity |  | MIC90 |  | 485 µg/mL
CC(C)(O)c1cn(-c2ccc([N+](=O)[O-])cc2)nn1 | URM 4790 | broth dilution |  | inhibition | 2048 µg/mL | 0%
Nc1ncccc1-c1cc(Cc2ccc(COc3ccccn3)cc2)no1 | 8663 | broth dilution |  | MIC |  | 0.015 µg/mL
CC1CC(=O)N(CCCc2ccccc2)C1=O | CCC 131-2000 | broth dilution / turbidity |  | MIC |  | 125 µg/mL
CC(C)(O)c1cn(-c2ccc3ccccc3c2)nn1 | URM 933 | broth dilution |  | inhibition | 2048 µg/mL | 0%
OC(Cn1cncn1)(Cn1cncn1)c1ccc(F)cc1F | 65 isolates |  | 48 h | MIC90 |  | >100 µg/mL
CC(C)CC(O)C(=O)O | ATCC 750 | broth dilution |  | EC50 |  | 18000 µg/mL
CC(C)(O)c1cn(-c2ccccc2)nn1 | URM 4262 | broth dilution |  | inhibition | 2048 µg/mL | 0%
CC1CC2=C(O1)c1ccccc1C(=O)C2=O | Clinical isolate | broth dilution |  | MIC |  | 32 µg/mL
CC[C@@H]([C@H](C)O)n1ncn(-c2ccc(N3CCN(c4ccc(OC[C@@H]5CO[C@@](Cn6cncn6)(c6ccc(F)cc6F)C5)cc4)CC3)cc2)c1=O | 8663 | broth dilution |  | MIC |  | 0.03 µg/mL
CC(C)C[C@H](N)C(=O)O | ATCC 750 | broth dilution |  | MFC100 |  | >72000 µg/mL
Cc1ccccc1N1C(=O)C[C@@H](C)C1=O | CCC 131-2000 | broth dilution / turbidity |  | MIC |  | 125 µg/mL

The first 2 rows once more:

structure	strain or isolate	read by	conditions	read-out	dose	value
CC(C)(O)c1cn(-c2cccc3ccccc23)nn1	URM 916			inhibition	2048 µg/mL	0%
CC1(C)O[C@H]2[C@H](O)[C@@H](N=[N+]=[N-])C=C(c3ccc(C=O)cc3)[C@H]2O1	C 131	broth dilution / turbidity		inhibition	31.25 µg/mL	2.91%

ECn: concentration that inhibits the pathogen or its effect by n%. An empty or dashed field is not shown. Inhibition is in % at the dose shown (toxicity tests: loss of growth or viability). Rows are shuffled and stem from different studies.